The assay deals with T1, InvF (tag-free, purified) (S. Typhimurium, UniProt P69343 1-216).
T1 sequence: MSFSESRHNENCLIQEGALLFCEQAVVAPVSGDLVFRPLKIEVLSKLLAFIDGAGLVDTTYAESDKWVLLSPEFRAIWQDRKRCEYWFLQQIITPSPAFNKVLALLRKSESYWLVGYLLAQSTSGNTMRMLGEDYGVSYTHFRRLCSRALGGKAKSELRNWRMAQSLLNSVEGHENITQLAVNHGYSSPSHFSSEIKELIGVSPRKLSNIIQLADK
The experiment in a line: ITC.

B1: SicA N70A (tag-free, purified) (natural protein)
chain: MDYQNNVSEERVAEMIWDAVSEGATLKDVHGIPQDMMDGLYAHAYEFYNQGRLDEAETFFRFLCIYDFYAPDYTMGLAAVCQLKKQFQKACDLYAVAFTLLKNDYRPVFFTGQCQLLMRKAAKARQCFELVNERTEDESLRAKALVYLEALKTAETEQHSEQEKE
In the case of B1, the binding result is given as “binds”.
